# Reference: paper PMC7517352 (Frontiers in Microbiology, 2020)
# Values joined by “and” are separate entries in the source; they are usually repeats but may differ in a detail not shown here. Equal entries are not always repeated.
# B1: VapB21 antitoxin (Rv2758c), individually purified from pET15b (natural protein)
# chain: MHRGYALVVCSPGVTRTMIDIDDDLLARAAKELGTTTKKDTVHAALRAALRASAARSLMNRMAENATGTQDEALVNAMWRDGHPENTA
# B2: VapB32 antitoxin (Rv1113) (natural protein)
# chain: MRTTVTVDDALLAKAAELTGVKEKSTLLREGLQTLVRVESARRLAALGGTDPQATAAPRRRTSPR
# B3: VapB4 antitoxin (Rv0596c) (natural protein)
# chain: MSATIPARDLRNHTAEVLRRVAAGEEIEVLKDNRPVARIVPLKRRRQWLPAAEVIGELVRLGPDTTNLGEELRETLTQTTDDVRW
# B4: VapB26 antitoxin (Rv0581) (natural protein)
# chain: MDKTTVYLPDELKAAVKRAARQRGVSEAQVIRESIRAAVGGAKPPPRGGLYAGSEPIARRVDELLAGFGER
# B5: VapC21 toxin (Rv2757c), individually purified from pET15b (enzyme)
# chain: MTTRYLLDKSAAYRAHLPAVRHRLEPLMERGLLARCGITDLEFGVSARSREDHRTLGTYRRDALEYVNTPDTVWVRAWEIQEALTDKGFHRSVKIPDLIIAAVAEHHGIPVMHYDQDFERIAAITRQPVEWVVAPGTA
# B6: VapB3 antitoxin (Rv0550c) (natural protein)
# chain: MLSRRTKTIVVCTLVCMARLNVYVPDELAERARARGLNVSALTQAAISAELENSATDAWLEGLEPRSTGARHDDVLGAIDAARDEFEA
# Target: VapC21 toxin (Rv2757c), individually purified from pET15b (M. tuberculosis) (UniProt P9WF91)
# Assay: SEC-MALS
row,Molecule,stoichiometry N (antitoxin per toxin (2:2))
1,C-terminal VapB21 peptide (residues 69–108),1

# Target: B5
# Assay: SPR
Molecule,Kd [nM],koff [s⁻¹],kon [M⁻¹ s⁻¹]
B1,3,0.00038,410000
B2,18,0.002,130000
B3,73,0.0014,39000
B4,53,0.00069,16000

# Target: B5
# Assay: SEC-MALS
row,Molecule,stoichiometry N
1,B2,1 antitoxin per toxin (2:2) and 1 antitoxin per toxin (4:4)
2,B3,1 antitoxin per toxin (2:2)
3,B4,1 antitoxin per toxin (2:2)

# Target: the molecule itself
# Assay: SEC-MALS
row,Molecule,stoichiometry N
1,B1,2
2,B2,2
3,B5,2
4,B6,2
5,B3,2
6,B4,2
